Measured values from several laboratories, pooled; numbers as filed in NIAID ChemDB.

Shared fields: enzyme or target tests; organism: HIV-1; protein: Reverse transcriptase

An empty or dashed field is not shown. ICn is the concentration giving n% inhibition. Lines come from different laboratories, so protocols vary. a–b is a range or a potency band.

| structure | measure | read by | strain | changes | result |
|---|---|---|---|---|---|
| Cc1ccc(-n2nccc2OCC(=O)Nc2ccc(-c3ccc(CC(=O)O)cc3)cc2Cl)c(Cl)c1 | IC50 | PicoGreen / fluorescence | - | RT-K103 Y181C | <1 µM |
| Cc1cc(C)cc(S(=O)(=O)c2c(C(N)=O)[nH]c3ccc(Cl)cc23)c1 | Ki | nucleotide incorporation / radiometric | WT | - | 0.0003 µM |
| CC(C)(C)c1ccc(-n2nnnc2SCC(=O)Nc2ccc(OCC(=O)NCCO)cc2Cl)c(Cl)c1 | IC50 | PicoGreen / fluorescence | WT | - | <1 µM |
| COc1cc2c(cc1OC)CN(c1nn3c(C(F)F)nnc3c3ccccc13)CC2 | IC90 | RT activity / fluorescence | IIIB | - | 2.77 µM |
| CCc1ccc(-n2c(Br)nnc2SCC(=O)Nc2ccc(C(=O)O)cc2Br)c2ccccc12 | IC50 | nucleotide incorporation / radiometric | - | RT-Y181C | <0.05 µM |
| CC(C)Nc1cccnc1N(C)C1CCN(C(=O)c2cc3ccccc3[nH]2)C1 | IC50 | nucleotide incorporation | - | - | >100 µM |
| Cc1cc(C)cc(S(=O)(=O)c2c(C(=O)NCCn3cccc3)[nH]c3ccc(Cl)c(F)c23)c1 | Ki | RT activity / nucleotide incorporation | - | L100I | 0.03 µM |
| Cc1cc(S(N)(=O)=O)ccc1NC(=O)COc1ccccc1C(=O)c1cc(Cl)cc(C#N)c1 | IC50 | fluorescence | WT | - | 0.0076 µM |
| Nc1ncnc2c1ncn2[C@H]1CC[C@@H](COP(=O)(O)OP(=O)(O)OP(=O)(O)O)O1 | IC50 | nucleotide incorporation / radiometric | - | RT-A62V | 3.9 µM |
| CCN1c2ncc(CCOc3cccc4c3C=CS(=O)(=O)N4C)cc2-c2ncc(C)n2-c2cccnc21 | IC50 | nucleotide incorporation / radiometric | - | RT-K103N Y181C | <0.05 µM |
| CCN1c2ncc(CCOc3ccc(-c4nc(C(=O)O)cs4)cc3)cc2C(=O)N(C)c2cccnc21 | IC50 | nucleotide incorporation / radiometric | IIIB | RT-K103N Y181C | >0.1 µM |
| CC(C)(N)C#Cc1ccc(NC(=O)CSc2nnnn2-c2cc(C3CC3)cc(C(F)(F)F)c2Cl)c(Cl)c1F | IC50 | PicoGreen / fluorescence | - | RT-K103 Y181C | <1 µM |
| Cc1occc1C(=S)Nc1ccc(Cl)c(/C=N/OC(C)(C)C)c1 | IC50 | nucleotide incorporation / radiometric | - | RT-L100I | >50 µM |
| CCN1c2ncc(CCOc3ccc(-c4csc(N)n4)cc3C)cc2C(=O)N(C)c2cccnc21 | IC50 | nucleotide incorporation / radiometric | IIIB | - | <0.05 µM |
| Nc1cc2c(c(N3CCCC3)c1)CCN(c1nn3c(C4CC4)nnc3c3ccccc13)C2 | IC50 | RT activity / fluorescence | IIIB | - | 8.06 µM |
| CC(C)=CCN1Cc2cccc3[nH]c(=S)n(c23)C[C@@H]1C | IC50 | nucleotide incorporation | - | RT-Y181I | 67.5 µM |
| CC(C)Nc1cccnc1N1CCCN(C(=O)c2cc3ccccc3[nH]2)CC1 | IC50 | nucleotide incorporation | - | - | <100 µM |
| CCN1c2ncc(CCOc3cccc4c3CCS(=O)(=O)N4)cc2-c2ncc(C)n2-c2cccnc21 | IC50 | nucleotide incorporation / radiometric | - | RT-K103N Y181C | 0.05–0.1 µM |
| CCN1c2ncc(CCOc3ccc(-c4cnccc4C)cc3C)cc2C(=O)N(C)c2cccnc21 | IC50 | nucleotide incorporation / radiometric | IIIB | RT-K103N Y181C | <0.05 µM |
| CN(C)CCCC(=O)NC(C)(C)C#Cc1ccc(NC(=O)CSc2nnnn2-c2cc(C(F)(F)F)ccc2Cl)c(Cl)c1F | IC50 | PicoGreen / fluorescence | WT | - | <1 µM |
| CCN1c2ncc(CCOc3ccc4c(c3)C(C)(C)NS4(=O)=O)cc2-c2nccn2-c2c(C)ccnc21 | IC50 | nucleotide incorporation / radiometric | - | RT-K103N Y181C | <0.05 µM |
| COc1ccc2cccc(-n3c(Br)nnc3SCC(=O)Nc3ccc(C(=O)O)cc3Cl)c2c1 | IC50 | nucleotide incorporation / radiometric | - | RT-Y181C | <0.05 µM |
| Cc1ccc(-n2nnnc2SCC(=O)Nc2ccc(-c3ccc(S(N)(=O)=O)cc3)cc2[N+](=O)[O-])c(Cl)c1 | IC50 | PicoGreen / fluorescence | WT | - | <1 µM |
| Cc1nnc2c3ccccc3c(N3CCc4ccc(C(=O)O)cc4C3)nn12 | IC90 | RT activity / fluorescence | KER2008 | - | 28.2 µM |
| CCc1ccc(-n2c(SCC(=O)Nc3ccc(C(=O)O)cc3Cl)nnc2C(F)(F)F)c2ccccc12 | IC50 | nucleotide incorporation / radiometric | - | - | <0.05 µM |
| Nc1nc2c(ncn2[C@H]2CC[C@@H](COP(=O)(O)OP(=O)(O)OP(=O)(O)O)O2)c(=O)[nH]1 | IC50 | nucleotide incorporation / radiometric | - | RT-A62V | 0.029 µM |
| CC(C)(C)c1ccc(-n2nnnc2SCC(=O)Nc2ccc(-c3ccc(OCC(=O)O)cc3Cl)cc2Cl)c(Cl)c1 | IC50 | PicoGreen / fluorescence | - | RT-K103 Y181C | <1 µM |
| Cc1cc(C)cc(S(=O)(=O)c2c(C(=O)NCC(N)=O)[nH]c3ccc(Cl)c(F)c23)c1 | Ki | RT activity / nucleotide incorporation | - | WT | 0.025 µM |
| CCN1c2ccc(C)cc2N(C)C(=O)c2cc(Cl)nnc21 | IC50 | - | - | - | <330 µM |
| CCN1c2ncc(CCOc3ccc(-c4cc(F)c(O)c(F)c4)cc3C)cc2C(=O)N(C)c2cccnc21 | IC50 | nucleotide incorporation / radiometric | IIIB | RT-K103N Y181C | 0.05–0.1 µM |
| O=C(CSc1nnc(Br)n1-c1ccc(C2CC2)cc1Cl)Nc1ccc(C(=O)O)cc1Cl | IC50 | nucleotide incorporation / radiometric | - | - | <0.05 µM |
| CCN1c2ncc(CCOc3ccc(-c4ccc(C(O)C(=O)O)cc4)cc3C)cc2C(=O)N(C)c2cccnc21 | IC50 | nucleotide incorporation / radiometric | IIIB | - | <0.05 µM |
| CCC(C)Nc1cccnc1N1CCN(C(=O)c2cc3ccccc3[nH]2)CC1 | IC50 | nucleotide incorporation | - | - | <100 µM |
| CC(C)(C)c1ccc(-n2nnnc2SCC(=O)Nc2ccc(NC(=O)Cc3ccc4ccoc4c3)cc2Cl)c(Cl)c1 | IC50 | PicoGreen / fluorescence | - | RT-K103 Y181C | <1 µM |
| Cc1occc1C(=S)Nc1ccc(Cl)c(C(=O)OCC2CC2)c1 | IC50 | nucleotide incorporation / radiometric | - | - | 6 µM |
| Nc1cc2c(c(N3CCOCC3)c1)CCN(c1nn3c(C4CC4)nnc3c3ccccc13)C2 | IC90 | RT activity / fluorescence | KER2008 | - | 51.3 µM |
| Cc1ccc(-n2nnnc2SCC(=O)Nc2ccc(-c3nn[nH]n3)cc2Cl)c(Cl)c1 | IC50 | PicoGreen / fluorescence | WT | - | <1 µM |
| CCN1c2ncc(CCOc3cccc4c3CNC(=O)N4)cc2-c2nc(C)cn2-c2cccnc21 | IC50 | nucleotide incorporation / radiometric | - | RT-K103N Y181C | >0.1 µM |
| CCc1ccc(-n2c(CF)nnc2SCC(=O)Nc2ccc(C(=O)O)cc2Cl)c2ccccc12 | IC50 | nucleotide incorporation / radiometric | - | RT-Y188L | >0.1 µM |
| CCCCN1C(=O)c2cc(Cl)nnc2N(C2CC2)c2ccccc21 | IC50 | - | - | - | >330 µM |
| C=CCO/N=C/c1cc(NC(=S)c2ccoc2C)ccc1Cl | IC50 | nucleotide incorporation / radiometric | - | RT-L108I | >50 µM |
| CCN1c2ncc(CCOc3ccc(-c4cc(C)ccn4)cc3C)cc2C(=O)N(C)c2cccnc21 | IC50 | nucleotide incorporation / radiometric | IIIB | RT-K103N Y181C | <0.05 µM |
| COC(=O)c1ccc(-c2ccc(NC(=O)CSc3nnnn3-c3ccc(C)cc3Cl)c(Cl)c2)cc1 | IC50 | PicoGreen / fluorescence | WT | - | <1 µM |
| CCOC(=O)CNC(=O)c1ccc(NC(=O)CSc2nnc(Br)n2-c2ccc(C3CC3)c3ccccc23)c(Cl)c1 | IC50 | nucleotide incorporation / radiometric | - | RT-Y188L | <0.05 µM |
| CCN(CC)c1cccnc1N1CCN(C(=O)c2cc3ccccc3[nH]2)CC1 | IC50 | nucleotide incorporation | - | - | <100 µM |
| O=C(O)Cc1ccc(-c2ccc(NC(=O)CSc3nnnn3-c3ccc(C4CC4)cc3Cl)c(Br)c2)cc1 | IC50 | PicoGreen / fluorescence | - | RT-K103 Y181C | <1 µM |
| Cc1cc(C)cc(S(=O)(=O)c2c(C(=O)NC(C)C(N)=O)[nH]c3ccc(Cl)cc23)c1 | IC50 | nucleotide incorporation / radiometric | - | RT-K103N | 0.5 µM |
| CNC(=O)NS(=O)(=O)c1ccc(NC(=O)CSc2nnnn2-c2ccc(C3CC3)cc2Cl)c(Cl)c1 | IC50 | PicoGreen / fluorescence | WT | - | <1 µM |
| CN1C(=O)c2ccnnc2N(C2CC2)c2ccccc21 | IC50 | - | - | - | <330 µM |
| CCN1c2ncc(CCOc3cccc4c3ccc[n+]4[O-])cc2C(=O)Nc2c(C)cc(Cl)nc21 | IC50 | nucleotide incorporation / radiometric | IIIB | - | 0.007 µM |
| COc1cccc(CC(=O)Nc2ccc(NC(=O)CSc3nnnn3-c3ccc(C(C)(C)C)cc3Cl)c(Cl)c2)c1 | IC50 | PicoGreen / fluorescence | - | RT-K103 Y181C | <1 µM |
| CCN1c2ncc(CCOc3ccc(-c4cc(C(=O)O)on4)cc3)cc2C(=O)N(C)c2cccnc21 | IC50 | nucleotide incorporation / radiometric | IIIB | - | <0.05 µM |
| O=C(CSc1nnnn1-c1cc(C(F)(F)F)ccc1Cl)Nc1ccc(-c2ccc(OCCN3CCCCC3)cc2)c(F)c1Cl | IC50 | PicoGreen / fluorescence | WT | - | <1 µM |
| CCc1cc(CCc2nc3ccccc3o2)c(=O)[nH]c1C | IC50 | nucleotide incorporation | - | RT-Y181W | 0.6552 µM |
| CC(C)(C)c1ccc(-n2nnnc2SCC(=O)Nc2ccc(NC(=O)CCc3ccccc3)cc2Cl)c(Cl)c1 | IC50 | PicoGreen / fluorescence | WT | - | <1 µM |
| CCNc1cccnc1N1CCN(Cc2cc(C)c(OC)c(C)c2)CC1 | IC50 | nucleotide incorporation | - | - | <100 µM |
| CC(C)(C#Cc1ccc(NC(=O)CSc2nnnn2-c2ccc(C(C)(C)C)cc2Cl)c(Cl)c1)OCC(=O)Nc1ccc(O)cc1 | IC50 | PicoGreen / fluorescence | WT | - | <1 µM |
| CCNc1cccnc1N1CCN(CCc2cc(C)c(OC)c(C)c2)CC1 | IC50 | nucleotide incorporation | - | - | >100 µM |
| CC(C)(C)c1ccc(-n2nnnc2SCC(=O)Nc2ccc(NC(=O)Cc3ccccc3Cl)cc2Cl)c(Cl)c1 | IC50 | PicoGreen / fluorescence | WT | - | <1 µM |
| CCN1c2ncc(CCOc3ccc(-c4ccc(CC(=O)O)cc4)cc3C)cc2-c2ncc(C)n2-c2cccnc21 | IC50 | nucleotide incorporation / radiometric | - | RT-K103N Y181C | 0.05–0.1 µM |
| CC(C)(C)c1ccc(-n2nnnc2SCC(=O)Nc2ccc(NC(=O)Cc3cccc([N+](=O)[O-])c3)cc2Cl)c(Cl)c1 | IC50 | PicoGreen / fluorescence | WT | - | <1 µM |
| CCN1C(=O)c2ccnnc2N(C2CC2)c2ccccc21 | IC50 | - | - | - | <330 µM |
| CC(C)(C#Cc1ccc(NC(=O)CSc2nnnn2-c2ccc(C(C)(C)C)cc2Cl)c(Cl)c1)OCC(=O)NC1(C(=O)O)CC1 | IC50 | PicoGreen / fluorescence | WT | - | <1 µM |
| Cc1cc(C2CC2)c2ccccc2c1-n1c(Br)nnc1SCC(=O)Nc1ccc(C(=O)O)cc1Cl | IC50 | nucleotide incorporation / radiometric | - | - | <0.05 µM |
| CC(C)(C#Cc1ccc(NC(=O)CSc2nnnn2-c2cc(C(F)(F)F)cc(C3CC3)c2Cl)c(Cl)c1)C(=O)O | IC50 | PicoGreen / fluorescence | WT | - | <1 µM |
| CCN1c2ncc(CCOc3ccc(NC(=O)c4ccc(C(=O)O)cc4)cc3C)cc2C(=O)N(C)c2cccnc21 | IC50 | nucleotide incorporation / radiometric | IIIB | RT-K103N Y181C | <0.05 µM |
| Cc1ccc(-n2nnnc2SCC(=O)Nc2ccc(-c3csc(N)n3)cc2Cl)c(Cl)c1 | IC50 | PicoGreen / fluorescence | WT | - | <1 µM |
| CCN1c2ncc(CCOc3cccc4c3CN(C)C(=O)N4C)cc2-c2ncc(C)n2-c2cccnc21 | IC50 | nucleotide incorporation / radiometric | - | RT-K103N Y181C | >0.1 µM |

The last 8 rows once more:

structure,measure,read by,strain,changes,result
CC(C)(C)c1ccc(-n2nnnc2SCC(=O)Nc2ccc(NC(=O)Cc3cccc([N+](=O)[O-])c3)cc2Cl)c(Cl)c1,IC50,PicoGreen / fluorescence,WT,-,<1 µM
CCN1C(=O)c2ccnnc2N(C2CC2)c2ccccc21,IC50,-,-,-,<330 µM
CC(C)(C#Cc1ccc(NC(=O)CSc2nnnn2-c2ccc(C(C)(C)C)cc2Cl)c(Cl)c1)OCC(=O)NC1(C(=O)O)CC1,IC50,PicoGreen / fluorescence,WT,-,<1 µM
Cc1cc(C2CC2)c2ccccc2c1-n1c(Br)nnc1SCC(=O)Nc1ccc(C(=O)O)cc1Cl,IC50,nucleotide incorporation / radiometric,-,-,<0.05 µM
CC(C)(C#Cc1ccc(NC(=O)CSc2nnnn2-c2cc(C(F)(F)F)cc(C3CC3)c2Cl)c(Cl)c1)C(=O)O,IC50,PicoGreen / fluorescence,WT,-,<1 µM
CCN1c2ncc(CCOc3ccc(NC(=O)c4ccc(C(=O)O)cc4)cc3C)cc2C(=O)N(C)c2cccnc21,IC50,nucleotide incorporation / radiometric,IIIB,RT-K103N Y181C,<0.05 µM
Cc1ccc(-n2nnnc2SCC(=O)Nc2ccc(-c3csc(N)n3)cc2Cl)c(Cl)c1,IC50,PicoGreen / fluorescence,WT,-,<1 µM
CCN1c2ncc(CCOc3cccc4c3CN(C)C(=O)N4C)cc2-c2ncc(C)n2-c2cccnc21,IC50,nucleotide incorporation / radiometric,-,RT-K103N Y181C,>0.1 µM